Pooled drug test results. Numbers come from NIAID ChemDB, via PubChem.

Shared fields: growth or infection tests; species: Mycobacterium tuberculosis

An empty or dashed field is not shown. MIC50, MIC90 and the like: level of inhibition, or share of isolates inhibited. Conditions beyond the fields shown may differ between rows. MIC bound comes from a single tested concentration. Percent inhibition refers to the dose given; in toxicity tests it is the harm to the cells. ECn is the concentration giving n% inhibition of infection, replication or growth.

compound	strain or isolate	cells	read by	read-out	dose	value
CC(C)c1cccc(Br)c1	H37Rv			MIC		>100 µg/mL
Cc1cc(C(=O)O)c(C(N)=O)c(Cl)n1	H37Rv		BACTEC	MIC		≥12.5 µg/mL
CCOC=C(C(=O)OCC)C(=O)OCC	H37Rv			MIC		50 µg/mL
CO/C(=N\N=C\c1cc(OC)ccc1OC)c1ccncc1			BACTEC	inhibition	0.5 µM	0%
CCOCCCNCCNC[C@@H]1CC[C@H]2C[C@@H]1C2(C)C				MIC		50 µM
CC(C)N=c1cc2n(-c3ccc(Cl)cc3)c3ccccc3nc-2cc1Nc1ccc(Cl)cc1	MDR7		broth dilution / resazurin	MIC		2 µg/mL
CCCCC(CC)CN1CN(CC(CC)CCCC)CC(C)(NCCNC2CCCCC2C)C1				MIC		25 µM
CC(C(=O)O)c1cccc2ccccc12	H37Rv			MIC		>100 µg/mL
COc1ccc(CCNCCNCCCN2CCCC2=O)cc1				MIC		25 µM
CC#CC#C/C=C1\C=CC2(OC=CC2OC(C)=O)O1	EMB-R			MIC		6.3 µg/mL
COc1ccc2c(c1)OC(c1cccc([N+](=O)[O-])c1)CC2=O				inhibition	12.5 µg/mL	0%
COc1ccc(Nc2c3ccc(Cl)cc3nc3ccc(OC)cc23)cc1	H37Rv			MIC		>100 µg/mL
Nc1ccccc1/C=C/C(=O)c1cc(Br)ccc1O				inhibition	12.5 µg/mL	8%
Nc1cc2nc3ccccc3sc-2cc1=O	H37Rv	VERO	BACTEC	MIC		0.2 µg/mL
CCOC(=O)c1ccc(N)cc1C(=O)OCC	H37Rv			MIC		>100 µg/mL
O=C1c2ccccc2OC(c2ccccc2)C1O	H37Rv			inhibition	12.5 µg/mL	38%
CC1NCCCN(CCN(C)C)CCCNC(C)c2cccc1n2	H37Rv		resazurin	MIC bound		>6.25 µg/mL
CCCCC(CC)CN1CN(CC(CC)CCCC)CC(C)(NCCNCCc2ccc(OC)c(OC)c2)C1				MIC		6.25 µM
Cc1nc2ccccc2o1	H37Rv			MIC		100 µg/mL
CO[C@H]1/C=C/O[C@@]2(C)Oc3c(C)c(O)c4c(=O)c(c5oc6cc(N7CCN(CC(C)C)CC7)cc(=O)c6nc5c4c3=C2O)NC(=O)/C(C)=C\C=C\[C@H](C)[C@H](O)[C@@H](C)[C@@H](O)[C@@H](C)[C@H](OC(C)=O)[C@@H]1C	2912 (rifampin-sensitive)			MBC		0.006 µg/mL
CC1(C)CC2CC(C)(CN2CCNCC(c2ccccc2)c2ccccc2)C1				MIC		37.5 µM
COc1ccc(CC(N=Cc2ccc3c(c2)OCO3)C(=O)NC2C(CO)OC(n3cnc4c(N(C)C)ncnc43)C2O)cc1	H37Rv		BACTEC	MIC bound		≤12.5 µg/mL
C=CCN1CCCC(COC(=O)c2ccc([N+](=O)[O-])cc2)C1	H37Rv			MIC		>100 µg/mL
CO[C@H]1/C=C/O[C@@]2(C)Oc3c(C)c(O)c4c(O)c(c5c(c4c3C2=O)NC2(CCN(CC(C)C)CC2)N=5)=NC(=O)/C(C)=C\C=C\[C@H](C)[C@H](O)[C@@H](C)[C@@H](O)[C@@H](C)[C@H](OC(C)=O)[C@@H]1C	2831 (rifampin-sensitive)			MIC		0.025 µg/mL
CC[C@H]1OC(=O)[C@H](C)[C@@H](O[C@H]2C[C@@](C)(OC)[C@@H](O)[C@H](C)O2)[C@H](C)[C@@H](O[C@@H]2O[C@H](C)C[C@H](N(C)C)[C@H]2O)[C@](C)(OC)C[C@@H](C)C(=O)[C@H](C)[C@@H](O)[C@]1(C)O	DRUG-SUS			MIC50		>8 µg/mL
NC(C(=O)[O-])(c1ccccc1)c1ccccc1.[Na+]	H37Rv			MIC		>100 µg/mL
CCCCCCCCCCCNCCNCc1ccco1				MIC		50 µM
O=C(CC(=O)c1ccccc1)Nc1ccc(O)cc1	H37Rv			MIC		>100 µg/mL
CCC[CH2][Sn]1([CH2]CCC)[O]C(=O)CN=C(C)c2ccccc2[O]1	CS-R			MIC		6.3 µg/mL
O=C(OCc1ccccc1)c1ccccc1	H37Rv			MIC		50 µg/mL
C[n+]1c([O-])c(C(=O)CCl)n2ccccc21	H37Rv		resazurin	MIC bound		>6.25 µg/mL
C=CCNCCNCCCCCCCCCCC				MIC		50 µM
CC1=NN(C(=O)c2ccc([N+](=O)[O-])cc2)C(=O)C1N=Nc1ccccc1C(=O)O	H37Rv		BACTEC	inhibition	12.5 µg/mL	3%
C[C@H]1C[C@H](N)CN1c1cc2c(cc1F)c(=O)c(C(=O)O)cn2-c1ccc(F)cc1F	ATCC 35826			MBC		8 µg/mL
CCCNCCNC[C@]1(C)CCC[C@]2(C)c3ccc(C(C)C)cc3CC[C@@H]12				MIC		12.5 µM
O=C1c2ccccc2C(=O)c2sc(Nc3ccc(Cl)c(Cl)c3)nc21	H37Rv		BACTEC	MIC bound		≤12.5 µg/mL
C[C@@H]1[C@H]2C[C@@H](C[C@H]1NCCN[C@@H](C)C1CCCCC1)C2(C)C				MIC		25 µM
O=Cc1ccc(O)cc1O	H37Rv			MIC		100 µg/mL
COc1ccc(C2CC(=O)c3ccc(I)cc3O2)cc1				inhibition	12.5 µg/mL	0%
COc1ccc(CNCCNCCCc2ccccc2)c(OC)c1				MIC		25 µM
O=C(OC1CC(=O)N2CC=Cc3cccc1c32)c1ccccc1	H37Rv			MIC		6.25 µg/mL
CC1(C)OC2OC(CO)C(NC(=O)C(F)(F)F)C2O1	H37Rv		BACTEC	MIC bound		>12.5 µg/mL
Oc1ccc2c(oc3ccccc32)c1O	H37Rv			MIC		>100 µg/mL
COc1ccc2[nH]c3c(C)c4c(c(C)c3c2c1)CN(C)CC4	H37Rv		resazurin	MIC bound		>6.25 µg/mL
OC1c2ccccc2Oc2ccccc21	H37Rv			MIC		>100 µg/mL
CC(C)(C)CC(C)(C)NCCNCc1ccc(C(F)(F)F)cc1				MIC		37.5 µM
C=C1C(=O)C2=CC1CCC(=O)C1(C)CCC(OC(C)=O)C(C)(C)C1CC2O	H37Rv		BACTEC	MIC bound		>12.5 µg/mL
CC1=CC(=O)C=C(C)C1=O	H37Rv			MIC		>100 µg/mL
CN1CCC(CNC(=O)CCCCCCCCC(=O)NCC2(c3ccccc3)CCN(C)CC2)(c2ccccc2)CC1	H37Rv		BACTEC	inhibition	6.25 µg/mL	1%
CN(C)c1ccc([NH2+]c2ccc(N(C)C)cc2)cc1.[Cl-]	H37Rv			MIC		>100 µg/mL
CC1(C)CC[C@]2(C(=O)O)CC[C@]3(C)C(=CC[C@@H]4[C@@]5(C)CC[C@H](O)C(C)(C)[C@@H]5CC[C@]43C)[C@@H]2C1	H37Rv		BACTEC	MIC bound		>12.5 µg/mL
CC(O)CNc1ccccc1	H37Rv			MIC		>100 µg/mL
CC(NCCNCCc1ccccc1)c1cccc2ccccc12				MIC		50 µM
CCOc1cc(C)nc(C)c1	H37Rv			MIC		>100 µg/mL
CC[N+]12CC=C3COC(=O)C(C)(O)C(C)(O)C(C)C(=O)OC(CC1)C32.[Br-]	H37Rv		BACTEC	inhibition	12.5 µg/mL	18%
O=C(O)c1cccc([N+](=O)[O-])c1O	H37Rv			MIC		>100 µg/mL
COc1ccc(C(=O)/C=C/c2ccccc2)c(O)c1	H37Rv			EC50		<12.5 µg/mL
CC(C)=CCC/C(C)=C/CNCCNC1CCCC(C)C1C				MIC		25 µM
CC1COc2c(N3CCN(C)CC3)c(F)cc3c(=O)c(C(=O)O)cn1c23	Drug-resistant			MBC90		2 µg/mL
COc1cc(OC)c2c(c1)OC(c1cc(OC)c(OC)c(OC)c1)CC2=O	H37Rv			EC50		>12.5 µg/mL
COC(=O)[C@H]1[C@H]2C[C@@H]3c4[nH]c5ccccc5c4CCN3C[C@H]2C[C@@H](OC(=O)c2cc(OC)c(OC)c(OC)c2)[C@@H]1OC	H37Rv		BACTEC	MIC		≥12.8 µg/mL
CC[C@H]1OC(=O)[C@H](C)[C@@H](O[C@H]2C[C@@](C)(OC)[C@@H](O)[C@H](C)O2)[C@H](C)[C@@H](O[C@@H]2O[C@H](C)C[C@H](N(C)C)[C@H]2O)[C@](C)(O)C[C@@H](C)CN(C)[C@H](C)[C@@H](O)[C@]1(C)O	MDR			MIC90		>8 µg/mL
O=C(NN(C(=O)c1ccccc1)c1cccs1)c1ccccc1	H37Rv		BACTEC	inhibition	12.5 µg/mL	1%
CC(=O)NC(N)=S	H37Rv			MIC		>100 µg/mL
O=C1NC(c2ccccc2)C(=O)NC1c1ccccc1	H37Rv		BACTEC	MIC bound		>12.5 µg/mL
CC1CC(C)CN(CCNCCC(c2ccccc2)c2ccccc2)C1				MIC		25 µM
Cc1cc(C2(c3ccc(O)c(C)c3)OS(=O)(=O)c3ccccc32)ccc1O	H37Rv		BACTEC	MIC bound		>12.5 µg/mL
CCCCCCCCCCCNCCNCCC				MIC		25 µM